Measured values from several laboratories, pooled; numbers as filed in NIAID ChemDB.

Common to all: whole-cell or culture tests; agent: HIV-1; measure: EC50

Blank or dashed fields: not listed here. Conditions beyond the fields shown may differ between rows. ECn is the concentration giving n% inhibition of infection, replication or growth.

smiles | strain | mutations | read by | setting | result
Cc1ccnc2c1NC(=O)c1cccnc1N2C1CC1 | WOPRO1838 Recombinant |  |  |  | 0.05 µM
O=C1CCN(CCOc2ccc(Cl)cc2C(=O)c2cc(Cl)cc(Cl)c2)C(=O)N1 |  | V106A | RT activity | pseudotyped | >10 µM
CC(C)=CCOc1cc(NC(=S)c2ccoc2C)ccc1Cl | UC781-RS(RT-Y181C | RT-Y181C |  |  | 1 µM
C[C@H](Cn1cnc2c(N)ncnc21)OCP(=O)(O)O | ZAM18 |  | p24 / ELISA |  | 0.53 µM
CC(C)c1nc(CN(C)C(=O)N[C@H](C(=O)N[C@@H](Cc2ccccc2)C[C@H](O)[C@H](Cc2ccccc2)NC(=O)OCc2cncs2)C(C)C)cs1 | PERE98287RT Recombinant |  |  |  | 0.1 µM
Cc1cn([C@H]2C[C@H](N=[N+]=[N-])[C@@H](CO)O2)c(=O)[nH]c1=O | CC11 Clinical isolates |  | p24 |  | 0.001 µM
CC=CCOc1cc(NC(=S)c2ccoc2C)ccc1OC |  |  |  |  | 0.6 µM
Cc1cn([C@H]2C[C@H](N=[N+]=[N-])[C@@H](CO)O2)c(=O)[nH]c1=O | NL4-3 | AMD3100-resistant |  |  | 0.006 µM
Cc1ccnc2c1NC(=O)c1cccnc1N2C1CC1 |  | V106A | RT activity | pseudotyped | >10 µM
O=C(NCc1ccc(F)cc1)c1nc(N2CCCCS2(=O)=O)c2cccnc2c1O |  |  | p24 |  | 0.008 µM
Fc1cccc(F)c1C1SCc2nc3ccccc3n21 | UC781-RS(RT-Y181C | RT-Y181C |  |  | >69 µM
Cc1ccccc1Cc1cccc(C(=O)CC(=O)C(=O)O)c1 |  | INTG-N155S | p24 |  | 1.2 µM
Cc1ccnc2c1NC(=O)c1cccnc1N2C1CC1 |  |  | luminescence |  | >40.5 µM
CCc1c(Sc2ccccn2)n(COCc2ccccc2)c(=O)[nH]c1=O | UC781-RS(RT-Y181C | RT-Y181C |  |  | 3.1 µM

2 of the rows above, restated:

{"smiles": "Cc1cn([C@H]2C[C@H](N=[N+]=[N-])[C@@H](CO)O2)c(=O)[nH]c1=O", "strain": "NL4-3", "mutations": "AMD3100-resistant", "result": "0.006 µM"}
{"smiles": "Cc1ccnc2c1NC(=O)c1cccnc1N2C1CC1", "read by": "luminescence", "result": ">40.5 µM"}